A mixed list of measured activities; the numbers were collected in NIAID ChemDB.

All rows: host cell toxicity; cells: PBMC; endpoint: CC50

CCn is the concentration with n% toxicity to the cells. Neighbouring rows are from separate reports.

Nc1ncnc2c1ncn2CCOCP(=O)(O)O ; method: MTT ; value: 10 µM
Cc1cn([C@H]2C=C[C@@H](CO)O2)c(=O)[nH]c1=O ; method: tetrazolium ; value: 4.5 µM
O=c1ccn([C@H]2CC[C@@H](CO)O2)c(=O)[nH]1 ; value: >100 µM
CC1=CC2=C(C(C)C)C(O)C(=O)/C(=C\NC(C)(C)C(=O)O)C2C(O)=C1c1c(C)cc2c(C(C)C)c(O)c(O)c(C=NC(C)(C)C(=O)O)c2c1O.[Na+].[Na+] ; method: MTT ; value: 81.43 µM
Nc1ccc(-c2ccc3ncc4ccc(=O)n(-c5cccc(C(F)(F)F)c5)c4c3c2)cn1 ; method: MTT ; value: 0.0883 µM
CC(C)CN(C[C@@H](O)[C@H](Cc1ccccc1)NC(=O)O[C@H]1CCOC1)S(=O)(=O)c1ccc(N)cc1 ; value: >100 µM
Nc1ccn([C@@H]2CS[C@H](CO)O2)c(=O)n1 ; value: >500 µM
CCOCn1c([Se]c2ccccc2)cc(=O)[nH]c1=O ; value: >100 µM
Cc1ccnc2c1NC(=O)c1cccnc1N2C1CC1 ; method: MTT ; value: 122 µg/mL
O=c1[nH]c(=O)n([C@H]2C[C@H](O)[C@@H](CO)O2)cc1C12B3B4B5B6B(B3B1B42)B1B5C61 ; value: >100 µM
Cc1cn([C@H]2C[C@H](N=[N+]=[N-])[C@@H](CO)O2)c(=O)[nH]c1=O ; value: >100 µM
Nc1ncnc2c1ncn2[C@H]1CC[C@@H](CO)O1 ; value: >100 µM
CNCCNCc1ccc2ccc3ccc(CNCCNC)nc3c2n1 ; value: >100 µM
Cc1cn([C@H]2C[C@H](N=[N+]=[N-])[C@@H](COC(=O)C(=O)N[C@H](C(=O)O)C(C)C)O2)c(=O)[nH]c1=O ; method: sulforhodamine ; value: 250 µM
CCOC(=O)CCc1ccccc1O[P@](=O)(N[C@@H](C)C(=O)OCC)OC[C@H]1O[C@@H](n2cnc3c(N)nc(N)nc32)[C@](C)(O)[C@@H]1O ; value: >100 µM
Cc1ccnc2c1NC(=O)c1cccnc1N2C1CC1 ; method: tetrazolium ; value: 5.1 µM
Cc1cn([C@H]2C=C[C@@H](CO)O2)c(=O)[nH]c1=O ; value: 70 µM
Cc1cn([C@H]2C[C@H](N=[N+]=[N-])[C@@H](CO)O2)c(=O)[nH]c1=O ; method: MTT ; value: >100 µM
CCC(=O)c1ccc(F)c([C@H]2C[C@H]2NC(=O)Nc2ccc(C#N)cn2)c1O ; value: 36 µM
COc1cc(OC)nc(N2C(=O)CSC2c2c(F)cccc2Cl)n1 ; method: MTT ; value: 55 µg/mL
CSCSc1nc(Cc2cc(C)cc(C)c2)c(C(C)C)c(=O)[nH]1 ; value: >100 µM
CC(C)(N)C(=O)O.[Na+] ; method: MTT ; value: 81.43 µM
Nc1ncc([C@H]2CC[C@@H](CO)O2)c(=O)[nH]1 ; value: >100 µM
Nc1ncnc2c1ncn2CCOCP(=O)(O)O ; method: MTT ; value: >100 µM
CCN(CC)CCNC(=O)/C=C/C1(C)COC2(OO1)C1CC3CC(C1)CC2C3 ; method: MTT ; value: >100 µM
CCN1c2ncccc2N(C)C(=S)c2sc3cccnc3c21 ; value: 31 µM
CC1(/C=C/C(=O)NCCNCCCC=O)COC2(OO1)C1CC3CC(C1)CC2C3 ; method: MTT ; value: >100 µM
Nc1ccn([C@H]2CC[C@@H](CO)O2)c(=O)n1 ; value: >100 µM
CC1=CC2=C(C(C)C)C(O)C(=O)/C(=C\N[C@H](CC(C)C)C(=O)O)C2C(O)=C1c1c(C)cc2c(C(C)C)c(O)c(O)c(C=N[C@@H](CC(C)C)C(=O)O)c2c1O.[Na+].[Na+] ; method: MTT ; value: 68.12 µM
Cc1cn([C@H]2C[C@H](N=[N+]=[N-])[C@@H](CO)O2)c(=O)[nH]c1=O ; value: 9 µM
Nc1nc2c(ncn2[C@H]2CC[C@@H](CO)O2)c(=O)[nH]1 ; value: >100 µM
CCOC(=O)[C@H](C)N[P@@](=O)(OC[C@H]1O[C@@H](n2cnc3c(N)nc(N)nc32)[C@](C)(O)[C@@H]1O)Oc1ccccc1CCC(=O)OC(C)C ; value: >100 µM
CC(C)=CCN1Cc2cc(Cl)cc3[nH]c(=S)n(c23)C[C@@H]1C ; value: 20 µM
Cc1cn([C@H]2C[C@H](N=[N+]=[N-])[C@@H](COC(=O)c3ccncc3)O2)c(=O)[nH]c1=O ; method: sulforhodamine ; value: 250 µM
S=C(NCCc1ccccn1)Nc1ccc(Br)cn1 ; value: >100 µM
CCOCn1c([Se]c2ccccc2)c(C)c(=O)[nH]c1=O ; value: >100 µM
CNc1ncnc2c1ncn2[C@H]1CC[C@@H](CO)O1 ; value: >100 µM
CC(C)Nc1cccnc1N1CCN(C(=O)c2cc3cc(NS(C)(=O)=O)ccc3[nH]2)CC1 ; value: 90 µM
Cc1cn([C@H]2C[C@H](N=[N+]=[N-])[C@@H](COC(=O)C(=O)N[C@@H](CC(C)C)C(=O)O)O2)c(=O)[nH]c1=O ; method: trypan blue ; value: 20 µM
CCCN(C)C(=O)Oc1nsnc1-c1c(Cl)cccc1Cl ; value: 148 µM
c1cc(CN2CCCNCCNCCCNCC2)ccc1CN1CCCNCCNCCCNCC1 ; value: >100 µM
Nc1ncnc2c1ncn2[C@@H]1C=C[C@H](CO)O1 ; value: 59 µM
Cc1cn([C@H]2C[C@H](N=[N+]=[N-])[C@@H](COC(=O)C(=O)NC(Cc3ccccc3)C(=O)O)O2)c(=O)[nH]c1=O ; method: sulforhodamine ; value: 300 µM
CCOC(=O)CCc1ccccc1O[P@@](=O)(N[C@@H](C)C(=O)OCC)OC[C@H]1O[C@@H](n2cnc3c(N)nc(N)nc32)[C@](C)(O)[C@@H]1O ; value: >100 µM
Nc1nc2c(ncn2[C@@H]2OC[C@@](/C=C/P(=O)(O)O)(CO)[C@@H]2F)c(=O)[nH]1 ; method: MTT ; value: >100 µM
CCCCN1C(=O)C(CC(C)C)NC(=O)C12CCN(CCCCCCc1ccccc1)CC2 ; value: 11.7 µM
CCOC(=O)[C@H](C)N[P@](=O)(OC[C@H]1O[C@@H](n2cnc3c(N)nc(N)nc32)[C@](C)(O)[C@@H]1O)Oc1ccccc1CCC(=O)OC(C)C ; value: >100 µM